This experiment has as its target M2 peptide (extracellular 23-amino-acid M2 peptide) (influenza A virus). The experiment in a line: ELISA, peptide coated, antibody 10 µg/ml.

B1: N547 (antibody, V domains shown)
VH: EVQLVESGGGLVKPGGSLRLSCAASGFTFSNALMSWVRQAPGKGLEWVGRIKSKTNGGTTDYAAPVKGRFTISRDDSKNTLYLQMNSLKTEDTAVYYCTTHLRYFDWLSDYWGQGTLVTVSS
VL: QSVLTQPPSMSAAPGQKVTISCSGSSSNIGNNYISWYQQLPGTAPKVLIYDNNKRPSGIPDRFSGSKSGTSATLGITGLQTGDEADYYCGSWDSSLSAGVFGTGTKVTVLG
The molecule B1 had an ELISA (OD450) of 0.51 OD450.

(Values after patent publication US20050170334A1.)
